Tested on: HIV-1 (RF variant) in CEM-SS cells
Assay: XTT-tetrazolium anti-HIV assay (HIV-1-infected CEM-SS cells)
Type: cell-based
From the text: Cancer Inst. […] Cancer Inst. 81:1254-1258, (1989)] but with several modifications.
Philadelphia: Lippincott, 1988, pp. 305-317; Weislow et al.: J. Nat. Cancer Inst. […] Cancer Inst. 81:1254-1258, (1989)].

| Compound | Protection against HIV-1 (500 nM) | Anti-HIV activity over time, XTT end-point (0-5 days of incubation, FIG. 3, 10 μg/ml) | XTT-formazan production in virus-infected cells (1.0-200 μg/ml, HIV-1-infected CEM-SS, 6 days) | Number of viable cells (XTT-formazan), infected versus uninfected cultures (broad range of concentrations) | Anti-HIV activity (fraction and pure compound from H. acuminatus isolation, anti-HIV screen) |
| --- | --- | --- | --- | --- | --- |
| CCCC(=O)O[C@@H]1[C@@H](C)[C@@]2(O)[C@@H](C=C(CO)C[C@]3(O)C(=O)C(C)=C[C@@H]23)[C@@H]2C(C)(C)[C@]12OC(=O)CCC [PDBu, phorbol 12,13-dibutyrate, reference compound] | protective against HIV-1 |  |  |  |  |
| CC(=O)O[C@@]12C[C@@H](C)[C@@]3(O)[C@@H](C=C(CO)C[C@]4(O)C(=O)C(C)=C[C@@H]34)[C@@H]1C2(C)C [prostratin] |  | strikingly apparent after three or more days | only a modest enhancement | essentially identical | striking activity |
